Article PMC9139002, “Naphthoquinone as a New Chemical Scaffold for Leishmanicidal Inhibitors of Leishmania GSK-3” (Biomedicines, 2022)

Sequences of proteins named here, by UniProt entry; tags and fusion partners are left off. Residues count along the entry.
UniProt A6N857, 1-355: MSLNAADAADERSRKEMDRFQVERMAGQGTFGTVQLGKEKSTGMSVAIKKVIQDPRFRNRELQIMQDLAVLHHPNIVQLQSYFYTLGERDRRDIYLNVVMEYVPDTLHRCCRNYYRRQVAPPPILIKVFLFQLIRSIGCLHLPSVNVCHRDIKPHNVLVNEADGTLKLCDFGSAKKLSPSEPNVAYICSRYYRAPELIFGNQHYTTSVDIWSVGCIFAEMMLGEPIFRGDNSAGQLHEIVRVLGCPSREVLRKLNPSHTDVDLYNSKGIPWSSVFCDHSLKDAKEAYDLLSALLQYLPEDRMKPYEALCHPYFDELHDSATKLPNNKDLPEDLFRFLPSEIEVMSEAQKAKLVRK

Tests used:
[1] = molecular target: LdGSK-3s (Leishmania donovani, UniProt A6N857); test: Inhibition of recombinant LdGSK-3s with Kinase Glo; format: biochemical
Experimental: Extraction, purification, and evaluation of compounds against recombinant LdGSK-3s was carried out as described. For that, a recombinant LdGSK-3s with a His-tag was obtained as inclusion bodies, that were further solubilized, and purified by chromatography first on a Ni^2+ column an in a second step on a DEAE (diethylaminoethyl) ionic exchange column. Samples were made in duplicate, and assays were repeated at least three times. IC50 (inhibitory concentration that decreases enzymatic activity by 50%) was calculated using the statistical module of SigmaPlot v11.0 software. Evaluation of compounds against hGSK-3β was performed using human recombinant GSK-3β purchased from Millipore as described previously. Compounds were prepared as a 10 mM stock solution in DMSO.

[2] = test system: L. infantum promastigotes; test: Leishmanicidal activity on promastigotes (MTT reduction), Table 2 and Table S1; format: cell-based, Leishmania infantum
Experimental: Both activities were assessed by inhibition of MTT (3-(4,5-dimethylthiazol-2-yl)-2,5-diphenyltetrazolium bromide) reduction, as described in [34]. Samples were made in triplicate and assays were repeated at least twice. DMSO content in the medium was adjusted to 0.25% v/v (final concentration), regardless of the final concentration of the drug, and for the control, the untreated parasites. ICx (inhibitory concentration that inhibits parasite growth or enzymatic activity by x%) was calculated using the statistical module of SigmaPlot v11.0 software.
In a step ahead, the leishmanicidal activity of the compounds on L. pifanoi axenic amastigotes and L. infantum promastigotes was evaluated. Axenic Leishmania amastigotes afford the appraisal of the leishmanicidal activity without the constrains imposed on the access of the compounds to intracellular amastigotes within the parasitophorous vacuole, as well as to preclude the interference of the compounds via host–parasite interface in the final activity. For that, the axenic line of L. pifanoi amastigotes belonging to the mexicana complex was chosen, as in this species the infectivity, antigenicity, and metabolic identity between axenic and intracellular amastigotes have been consistently validated.

[3] = test system: L. pifanoi axenic amastigotes; test: Leishmanicidal activity on axenic amastigotes (MTT reduction)
[4] = read-out: L. infantum Promastigotes IC50
[5] = read-out: L. pifanoi Axenic Amastigotes IC50

Compound | IC50 ([1]; read-out: LdGSK-3s IC50) [µM] | IC50 [2, 4] [µM] | IC50 [3, 5] [µM] | IC50 ([1]; read-out: LdGSK-3s IC50, tested form: HCl) [µM] | IC50 ([2]; read-out: L. infantum Promastigotes IC50, tested form: HCl) [µM] | IC50 ([3]; read-out: L. pifanoi Axenic Amastigotes IC50, tested form: HCl) [µM]
COc1ccc(NC2=NS(=O)(=O)N=C2N)cc1OC | > 10 | > 50 | > 50 | – | – | –
O=c1c2ccccc2n(Cc2ccc(C(F)(F)F)cc2)c(=S)n1Cc1ccccc1 | > 10 | > 25 | > 50 | – | – | –
COc1ccccc1NC(=O)NCc1cccnc1 | > 10 | > 50 | > 50 | – | – | –
FC(F)(F)c1ccc(C(=Nc2ccccc2)NC(=S)NCc2cccnc2)cc1 | > 10 | > 25 | > 25 | – | – | –
CCCCCCCC(=O)NNC(=O)c1c(O)c2ccccc2n(C)c1=O | > 10 | > 50 | 20.8 | – | – | –
CN(c1ccccc1Br)S(=O)(=O)c1nn(C)cc1N | – | – | – | > 10 | > 50 | > 50
Cn1c(=O)c(C(=O)NNC(=O)CC#N)c(O)c2ccccc21 | > 10 | > 50 | > 50 | – | – | –
Cc1cccc(-c2nc(CN3CCC[C@@H](C(=O)NCc4ccncc4)C3)c(C)o2)c1 | > 10 | > 50 | > 50 | – | – | –
Cn1c(=O)c(C(=O)NCC(=O)NCC(=O)OCc2ccccc2)c(O)c2ccccc21 | > 10 | > 50 | > 50 | – | – | –
CCOC(=O)c1sc(NC(=O)CCc2cc(OC)c(OC)c(OC)c2)nc1C | > 10 | > 50 | > 50 | – | – | –
COC(=O)c1sc(C)c(C)c1O | > 10 | > 50 | > 50 | – | – | –
O=C1C(=O)N(Cc2ccccc2)c2ccccc21 | > 10 | > 50 | > 50 | – | – | –
Oc1ccc(CNc2ncnc3[nH]ccc23)cc1 | > 10 | > 50 | > 50 | – | – | –
O=C(Cc1ccccc1)NCC(=O)OCC(=O)Nc1nc2ccccc2s1 | > 10 | > 50 | > 50 | – | – | –
CNS(=O)(=O)c1ccccc1CNC(=O)c1ccccc1 | > 10 | > 50 | > 50 | – | – | –
O=C1NS(=O)(=O)Nc2ccccc21 | > 10 | > 50 | > 50 | – | – | –
O=C(CNC(=O)c1ccccc1)NC(Cc1c[nH]c2ccccc12)C(=O)NCCN1CCOCC1 (stereo not drawn) | > 10 | > 50 | > 50 | – | – | –
CN1C(=O)c2ccccc2S(=O)(=O)NC1=NCc1ccccc1 | > 10 | > 50 | > 50 | – | – | –
Cc1sc(NC(=O)COC(=O)CNC(=O)c2ccccc2)nc1-c1ccccc1 | > 10 | > 50 | > 50 | – | – | –
OCC(O)COc1cscc1-c1ccccc1 (stereo not drawn) | > 10 | > 50 | > 50 | – | – | –
CCSc1nc2c(Cl)cccc2c(=O)n1-c1c(F)cccc1F | > 10 | > 50 | > 50 | – | – | –
COC(=O)c1ccccc1S(=O)(=O)N=C(N)N(C)C | > 10 | > 50 | > 50 | – | – | –

Like-named read-outs stand apart in the source and are kept apart here.
